The text below walks through data of US11737955B2, “Multi-functional micro and nanoparticles for use in root canal therapies” (THE GOVERNING COUNCIL OF THE UNIVERSITY OF TORONTO, priority 2012, dated 2023).

The test system of one data set is dentin-collagen. As to the kind of experiment: Enzymatic degradation of crosslinked dentin-collagen (ninhydrin assay). Also on record: species or system human. To be noted: collagenase degradation, day 7; control 5 μmol/mL.
A further data set has as its system dentin collagen. Description: Tensile testing of crosslinked dentin-collagen. Also on record: species or system bovine.

For `O=CCCCC=O` [GD, glutaraldehyde], the “amount of amino acid released” value in the data set on dentin-collagen amounted to 0.096 µmol/mL. In the data set with dentin collagen (crosslinked dentin-collagen vs control), this molecule gave a reduction in toughness of around 38%.

As for `O=C1OC2(c3cc(I)c(O)c(I)c3Oc3c2cc(I)c(O)c3I)c2c(Cl)c(Cl)c(Cl)c(Cl)c21` [RB, Rose Bengal], the “amount of amino acid released” value with dentin-collagen is 0.25 µmol/mL. Moreover, the “increase in toughness compared to the control group” value in the data set with dentin collagen (photodynamic crosslinking 540 nm, 20 J/cm^2) was found to be 196%.
